Measured values from several laboratories, pooled; numbers as filed in NIAID ChemDB.

All rows: tests in culture; species: HIV-2; read by: cytopathic effect; measure: EC50

An empty or dashed field is not shown. ECn: concentration that inhibits the pathogen or its effect by n%. Rows are shuffled and stem from different studies.

smiles	cells	strain	result
CC(C)(C)[Si](C)(C)OCC1OC(n2nncc2C(=O)N2CCC2)C(O[Si](C)(C)C(C)(C)C)C12OS(=O)(=O)C=C2N	CEM	ROD	>50 µM
O=C1CSC(c2ccnc3ccccc23)N1c1ccccn1	MT-4	ROD	7.1 µM
O=c1[nH]c2c(c(=O)[nH]1)C(c1ccc(I)cc1)c1c([nH]c(=O)[nH]c1=O)O2	MT-4	ROD	>276 µM
CSC[C@H](NC(=O)COc1cccc2cnccc12)C(=O)N[C@@H](Cc1ccccc1)[C@H](O)C(=O)N1CSC(C)(C)[C@H]1C(=O)NC(C)(C)C	ATH8	ROD	0.13 µM
Cc1cc(C(O)(c2cc(C)c(O)c(C(=O)O)c2)c2cc(C)c(O)c(C(=O)O)c2)cc(C(=O)O)c1O	MT-4	-	>200 µM
O=C1CSC(c2c(Cl)cccc2Cl)N1c1cccc(C(F)(F)F)c1	MT-4	ROD	3.09 µM
O=c1[nH]c(=O)n([C@H]2C[C@H](F)[C@@H](CO)O2)cc1Cl	MT-4	LAV-2	0.69 µM
CC(=O)O[C@@]12C[C@@H](C)[C@@]3(O)[C@@H](C=C(CO)C[C@]4(O)C(=O)C(C)=C[C@@H]34)[C@@H]1C2(C)C	C8166	CBL-20	0.568 µM
c1ccc(C2OCc3nc4ccccc4n32)cc1	MT-4	ROD	>17 µM
Cc1nc(N2C(=O)CSC2c2c(F)cccc2Cl)ccc1Br	MT-4	ROD	10.7 µM
CSC[C@H](NC(=O)COc1cccc2cnccc12)C(=O)N[C@@H](Cc1ccccc1)[C@H](O)C(=O)N1CSC(C)(C)[C@H]1C(=O)NC(C)(C)C	ATH8	ROD	0.13 µM
Cc1cn([C@H]2C[C@H](N=[N+]=[N-])[C@@H](CO)O2)c(=O)[nH]c1=O	MT-4	LAV-2-ROD	0.018 µg/mL
O=c1ccn([C@H]2C[C@H](F)[C@@H](CO)O2)c(=O)[nH]1	MT-4	LAV-2	0.16 µM
CCCCCCCSc1nsc(NC(=O)Nc2ccccc2)n1	MT-4	EHO	3.7 µM
Nc1nc(=O)n([C@@H]2CS[C@H](CO)O2)cc1F	MT-4	ZY	1.5 µM
CCCN(C)C(=O)Oc1nsnc1-c1c(Cl)cccc1Cl	MT-4	EHO	>28.5 µM
CC(C)NC(=O)c1cnnn1C1OC(CO[Si](C)(C)C(C)(C)C)C2(OS(=O)(=O)C=C2N)C1O[Si](C)(C)C(C)(C)C	CEM	ROD	>50 µM
Clc1nc(Cl)c2c(n1)Oc1nc(Cl)nc(Cl)c1C2c1ccccc1	MT-4	EHO	>17.5 µM
Fc1cccc(F)c1[C@@H]1SCc2nc3ccccc3n21	MT-4	ROD	>86.7 µM
Cc1cn([C@@H]2O[C@H](CO[Si](C)(C)C(C)(C)C)C3(OS(=O)(=O)C=C3N)[C@H]2O[Si](C)(C)C(C)(C)C)c(=O)n(C)c1=O	CEM	ROD	>250 µM
Nc1ccn([C@H]2CC[C@@H](CO)O2)c(=O)n1	CEM + CEM-SS	ROD	0.0621 µM
CCN(C)C(=O)c1cnnn1C1OC(CO[Si](C)(C)C(C)(C)C)C2(OS(=O)(=O)C=C2N)C1O[Si](C)(C)C(C)(C)C	CEM	ROD	>50 µM
Cc1cn([C@H]2C[C@H](N=[N+]=[N-])[C@@H](CO)O2)c(=O)[nH]c1=O	CEM	ZY	0.03 µM
Cc1ccc(CN2C(=O)CSC2c2c(F)cccc2Cl)o1	MT-4	ROD	15.1 µM
C[C@H](Cn1cnc2c(N)ncnc21)OCP(=O)(O)O	MT-4	ROD	3.48 µM
Nc1ncnc2c1ncn2CC(OCP(=O)(O)O)Sc1ccccc1	CEM	-	33.3 µg/mL
O=c1[nH]c2c(c(=O)[nH]1)C(c1ccccc1)c1c([nH]c(=O)[nH]c1=O)O2	MT-4	EHO	169.3 µM
COC(=O)[C@H](C)OP(=O)(OC[C@@H]1C=C[C@H](n2cc(C)c(=O)[nH]c2=O)O1)Oc1ccccc1	CEM	LAV-2	50 µM
COc1nc(=O)[nH]c2c1C(c1ccc(Cl)cc1)c1c(OC)nc(=O)[nH]c1O2	MT-4	EHO	>347 µM
CC(C)(C)[Si](C)(C)OCC1OC(n2nncc2C(=O)NC2CC2)C(O[Si](C)(C)C(C)(C)C)C12OS(=O)(=O)C=C2N	MT-4	ROD	>250 µM
CCN1c2ncccc2N(C)C(=S)c2sc3cccnc3c21	C8166	ROD	>38 µM
Fc1ccc(F)c(C2OCc3nc4ccccc4n32)c1	MT-4	ROD	>71 µM
O=c1[nH]c(=O)n([C@H]2C[C@H](F)[C@@H](CO)O2)cc1I	MT-4	LAV-2	0.23 µM

4 of the rows above, restated:

smiles | cells | strain | result
CSC[C@H](NC(=O)COc1cccc2cnccc12)C(=O)N[C@@H](Cc1ccccc1)[C@H](O)C(=O)N1CSC(C)(C)[C@H]1C(=O)NC(C)(C)C | ATH8 | ROD | 0.13 µM
c1ccc(C2OCc3nc4ccccc4n32)cc1 | MT-4 | ROD | >17 µM
CCCCCCCSc1nsc(NC(=O)Nc2ccccc2)n1 | MT-4 | EHO | 3.7 µM
Nc1ccn([C@H]2CC[C@@H](CO)O2)c(=O)n1 | CEM + CEM-SS | ROD | 0.0621 µM